The values that follow come from patent publication US11608328B2, “Chemical probes to identify anti-mycobacterial MmpL3 inhibitors” (Creighton University, priority 2019, dated 2023).

Amino acid sequences for entries named in this document (tags omitted).
UniProt P9WJV5, whole entry: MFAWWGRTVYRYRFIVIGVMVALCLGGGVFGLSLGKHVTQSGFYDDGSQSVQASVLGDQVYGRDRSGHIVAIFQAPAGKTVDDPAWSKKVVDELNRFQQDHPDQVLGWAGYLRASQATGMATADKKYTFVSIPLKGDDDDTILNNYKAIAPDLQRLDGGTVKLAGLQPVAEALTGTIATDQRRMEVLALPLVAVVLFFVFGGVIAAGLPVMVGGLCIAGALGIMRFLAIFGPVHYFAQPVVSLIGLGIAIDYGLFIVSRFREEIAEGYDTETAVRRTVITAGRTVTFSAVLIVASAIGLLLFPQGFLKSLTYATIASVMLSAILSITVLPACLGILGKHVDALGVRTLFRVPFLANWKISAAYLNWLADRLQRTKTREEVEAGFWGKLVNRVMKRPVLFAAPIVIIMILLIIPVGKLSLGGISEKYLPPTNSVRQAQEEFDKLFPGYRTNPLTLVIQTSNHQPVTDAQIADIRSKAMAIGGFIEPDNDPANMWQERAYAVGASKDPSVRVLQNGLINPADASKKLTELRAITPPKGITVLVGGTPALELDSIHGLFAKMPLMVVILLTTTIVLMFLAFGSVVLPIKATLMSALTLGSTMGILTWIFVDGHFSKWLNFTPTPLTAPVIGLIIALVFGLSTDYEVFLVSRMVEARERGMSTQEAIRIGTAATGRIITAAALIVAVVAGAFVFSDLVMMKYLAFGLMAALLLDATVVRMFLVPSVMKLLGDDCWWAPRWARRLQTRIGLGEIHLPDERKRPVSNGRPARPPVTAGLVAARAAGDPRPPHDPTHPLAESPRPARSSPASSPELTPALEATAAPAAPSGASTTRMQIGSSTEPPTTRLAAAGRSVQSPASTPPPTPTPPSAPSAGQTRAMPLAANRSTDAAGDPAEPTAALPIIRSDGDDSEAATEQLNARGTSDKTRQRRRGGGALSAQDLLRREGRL

The structures appear in SMILES notation. Converted amounts (≈) assume the structure as drawn. Where two headings read alike, the source gives them in different places. Marks after values point to notes of the source that are not given here.

Test [1] has as its system MsmgΔmmpL3 expressing mmpL3tb F644C. In words: Drug-susceptibility testing (MIC, resazurin blue test). As to conditions: Tables 1A-1B, superscript a = 8-fold or more increase over WT, b = 4-fold. The format is cell-based, Mycobacterium smegmatis. (In general: Resazurin is reduced to fluorescent resorufin, in cell work by metabolically active cells.)
For test [2], the system named is MsmgΔmmpL3 expressing mmpL3tb G253E. The description is as above. In kind it is cell-based, Mycobacterium smegmatis.
In test [3] the test system is MsmgΔmmpL3 expressing mmpL3tb L189R. Described as above. In kind it is cell-based, Mycobacterium smegmatis.
The test system of test [4] is MsmgΔmmpL3 expressing mmpL3tb L567P. The description is as above. The format is cell-based, Mycobacterium smegmatis. As to conditions: Tables 1A-1B, superscript a = 8-fold or more increase over WT, b = 4-fold.
In test [5] the test system is MsmgΔmmpL3 expressing mmpL3tb Q372R. Described as above. To be noted: Tables 1A-1B, superscript a = 8-fold or more increase over WT, b = 4-fold. The format is cell-based, Mycobacterium smegmatis.
For test [6], the system named is MsmgΔmmpL3 expressing mmpL3tb S288T. Described as above. The format is cell-based, Mycobacterium smegmatis. To be noted: Tables 1A-1B, superscript a = 8-fold or more increase over WT, b = 4-fold.
For test [7], the system named is MsmgΔmmpL3 expressing mmpL3tb S309C. The description is as above. In kind it is cell-based, Mycobacterium smegmatis. As to conditions: Tables 1A-1B; mutant S309C; superscript a = 8-fold or more increase over WT, b = 4-fold.
Test [8] has as its system MsmgΔmmpL3 expressing mmpL3tb S591I. The description is as above. The format is cell-based, Mycobacterium smegmatis.
Test [9] deals with MsmgΔmmpL3 expressing mmpL3tb T311I. Described as above. In kind it is cell-based, Mycobacterium smegmatis. To be noted: Tables 1A-1B, superscript a = 8-fold or more increase over WT, b = 4-fold.
Test [10] concerns MsmgΔmmpL3 expressing mmpL3tb V684A. The test is described as above. The format is cell-based, Mycobacterium smegmatis.
Test [11] has as its system MsmgΔmmpL3 expressing mmpL3tb V684G. The test is described as above. In kind it is cell-based, Mycobacterium smegmatis.
Test [12] relates to MsmgΔmmpL3 expressing mmpL3tb F644C/I/L. The test is described as above. To be noted: Table 2; mutant F644C/I/L.
Test [13] concerns MsmgΔmmpL3 expressing mmpL3tb F644Y. Described as above. To be noted: Table 2; mutant F644Y.
Test [14] deals with MsmgΔmmpL3 expressing mmpL3tb G253R. Described as above. To be noted: Table 2; mutant G253R.
Test [15] relates to MsmgΔmmpL3 expressing mmpL3tb G253W. The test is described as above. As to conditions: Table 2; mutant G253W.
The test system of test [16] is MsmgΔmmpL3 expressing mmpL3tb S591G. The test is described as above. As to conditions: Table 2; mutant S591G.
Test [17] relates to MsmgΔmmpL3 expressing mmpL3tb S591W. Described as above. To be noted: Table 2; mutant S591W.
The test system of test [18] is MsmgΔmmpL3 expressing mmpL3tb V684I. Described as above. To be noted: Table 2; mutant V684I.
Test [19] deals with MsmgΔmmpL3 expressing mmpL3tb V684W. The test is described as above. To be noted: Table 2; mutant V684W.
Test [20] relates to Mtb. In words: MIC values against Mtb used for the PMF assays. The format is cell-based, Mycobacterium tuberculosis. As to conditions: FIG. 8 legend.
For test [21], the target named is purified MmpL3tb protein (Mycobacterium tuberculosis, UniProt P9WJV5). The test can be described thus: Surface Plasmon Resonance binding to immobilized MmpL3tb.
For test [22], the target named is purified MmpL3-GFP (Mycobacterium tuberculosis, UniProt P9WJV5). In words: Flow cytometry-based competition binding assay on purified MmpL3-GFP (displacement of Compound 2). To be noted: 2 μM Compound 2 with increasing inhibitor concentrations. For orientation: A flow cytometer gives signals particle by particle.
Test [23] deals with transfer of mycolic acids onto their cell envelope acceptors in Mtb H37Rv. In words: Metabolic labeling with [1,2-14C]acetate, lipid and mycolic acid analysis in Mtb. As to conditions: 24 hours, 0.5× and 2×MIC.
In test [24] the test system is MsmgΔmmpL3 expressing wild-type mmpL3tb. As to conditions: MmpL3 WT.
In test [25] the test system is MsmgΔmmpL3 expressing mmpL3tb LI89A. To be noted: Table 2; mutant LI89A.
Test [26] deals with MmpL3tb (MmpL3^WT) (Mycobacterium tuberculosis, UniProt P9WJV5). To be noted: 50, 100 and 200 μM.
Test [27] relates to transfer of mycolic acids onto their cell envelope acceptors in MsmgΔmmpL3/pMVGH1-mmpL3tb. To be noted: 3 hours.
[28] abbreviates: Tables 1A-1B, […], superscript a = 8-fold or more increase over WT, b = 4-fold.
Where [29] appears, read: Table 2, mutant V684G (parent mutant).

Consider `CC1(C)CCC(NC(=O)c2cc3c(F)cc(F)cc3[nH]2)CC1`, for which the MIC (in general, the smallest concentration in the dilution series that meets the test's criterion for growth inhibition) in [1] is 0.03 µg/mL (≈ 0.0979 µM); in [2] (Table 2, mutant G253E (parent mutant)), 0.5 µg/mL (≈ 1.63 µM); in test [2] (setting [28]), 0.4^a μg/mL; in test [3] (Table 2, mutant L189R (parent mutant)), 0.5 µg/mL (≈ 1.63 µM); in [3] (setting [28]), 0.25^b μg/mL; in test [4], 1^a μg/mL. Moreover, the MIC in [5] was 0.5^a μg/mL; in [6], 0.64^a μg/mL; in [7] it was 0.5^a μg/mL; in test [8] (Table 2, mutant S591I (parent mutant)), 0.12-0.25^ μg/mL; in test [8] (setting [28]) it was 0.5^a μg/mL; in test [9] it was 0.125 µg/mL (≈ 0.408 µM). Moreover, the MIC is 0.25 µg/mL (≈ 0.816 µM) in test [10] (Table 2, mutant V684A (parent mutant)); 0.5^a μg/mL in [10] (setting [28]); 0.12-0.25^ μg/mL in test [11] (setting [29]); 0.25^b μg/mL in [11] (setting [28]); 0.03-0.06^ μg/mL in test [12]; 0.03 µg/mL (≈ 0.0979 µM) in test [13]. The MIC is 0.12-0.25^c μg/mL in [14]; 0.5 µg/mL (≈ 1.63 µM) in [15]; 0.06-0.12^c μg/mL in test [16]; 0.06-0.12^c μg/mL in test [17]; 0.06^c μg/mL in test [18]; 0.5 µg/mL (≈ 1.63 µM) in test [19]. The MIC in test [24] (Table 2) is 0.06 µg/mL (≈ 0.196 µM); in test [24] (Tables 1A-1B), 0.06 µg/mL (≈ 0.196 µM); in [25], 0.12^c μg/mL. Also, the MIC values in test [20] worked out at 0.05 µM (≈ 0.0153 µg/mL). Also, the ka2 in [21] (SPR global fit) is listed as 0.005 1/RU*s. Further, the kd1 in test [21] (SPR global fit) is 0.06 s⁻¹. The molecule also had a kd2 in test [21] (SPR global fit) of 0.0002 s⁻¹. In test [21] (SPR global fit, HEPES-TX buffer with 5% DMSO), the ka1 was 426.1 M⁻¹ s⁻¹. Further, in test [21] (SPR sensorgrams fit globally), the “Model (best-fit kinetic model)” value is “Two-state reaction”. The Kd in [21] (read-out: KD1, equilibrium dissociation constant calculated from the rate constants) was 5.4 µM. Also, the “displacement of Compound 2 from purified MmpL3tb” value in test [22] is recorded as “clear concentration-dependent displacement”. The “inhibition of transfer of mycolic acids to cell envelope acceptors” value is “displayed the same expected property of MmpL3 inhibitors” in test [23] and “actually targeted MmpL3tb in the Msmg recombinant system” in test [27]. In test [26], the BLI binding signal entry was “No signal was detected”.

Regarding `Cc1c(CN2CCN(C)CC2)cc(-c2ccc(Cl)cc2)n1-c1ccc(Cl)cc1` [BM212], the MIC came out at 4 µg/mL (≈ 9.65 µM) in test [11] (setting [29]) and 12.5 µg/mL (≈ 30.2 µM) in test [11] (setting [28]).
